Anti-infective test results gathered from many reports (values: NIAID ChemDB through PubChem).

Common to all: whole-cell or culture tests; species: Mycobacterium tuberculosis

A number after MIC or MFC names an inhibition level or a share of isolates. Lines come from different laboratories, so protocols vary. Blank or dashed fields: not listed here. Inhibition is in % at the dose shown (toxicity tests: loss of growth or viability). ECn: concentration that inhibits the pathogen or its effect by n%. MIC bound: limit read from a one-dose screen.

SMILES,cells,dose,conditions,strain or isolate,measure,read by,value
N#CC(C#N)=c1c2nsnc2c(=C(C#N)C#N)c2nsnc12,,,,H37Rv,MIC bound,BACTEC,≤12.5 µg/mL
COc1cc(-c2ccccc2)cc(OC)c1O,,,,90-221387,MIC,,52.3 µg/mL
CCCCCCSc1nc(Cl)nc2nc[nH]c12,,,,H37Rv,MIC90,,>6.25 µg/mL
COc1cc(-c2ccc(O)cc2)cc(O)c1C/C=C(\C)CO,,,,90-221387,MIC,,25.4 µg/mL
O=C(O)C1(O)C[C@@H](O)C(O)[C@H](O)C1,,12.5 µg/mL,,H37Rv,inhibition,BACTEC,8%
CC(=O)c1c(C)n([O-])c2ccc(Cl)cc2[n+]1=O,VERO,,,H37Rv,EC50,BACTEC,<6.25 µg/mL
COC(=O)C1c2ccccc2CC(=O)N1NC(C)=O,,,,H37Rv,MIC bound,BACTEC,>12.5 µg/mL
Clc1nc(Sc2ccc3ccccc3n2)c2[nH]cnc2n1.O,,6.25 µg/mL,,H37Rv,inhibition,,4%
NNC(=O)/C(=C\c1ccco1)NC(=O)c1ccccc1,,,,,MIC,,40 µg/mL
CCn1cc(C(=O)O)c(=O)c2cc(F)c(N3CCNCC3)nc21,,,,CIPT 140010072,MIC,,10 µg/mL
CC(C)=CCC/C(C)=C/CC/C(C)=C/CC/C=C(\C)CC/C=C(\C)CCC=C(C)C,,,,90-221387,MIC,,51.3 µg/mL
c1ccc(CSc2ccccn2)cc1,,,,H37Rv,MIC90,,>6.25 µg/mL
O=C(Nc1cccnc1)c1cccc2nc3ccccc3nc12,,,,H37Rv 27294,MIC,,0.78 µg/mL
COc1cccc(CSc2ncnc3nc[nH]c23)c1,,,,H37Rv,MIC90,,>6.25 µg/mL
CC(=O)c1c(CN2CCN(c3ccc(Cl)cc3)CC2)n([O-])c2ccccc2[n+]1=O,,,,H37Rv,EC50,BACTEC,>6.25 µg/mL
Cc1ccc2nc(SCC(=O)N/N=C/c3ccc(C(F)(F)F)cc3)n(-c3ccccc3)c(=O)c2c1,,,,H37Rv,MIC,,>6.25 µg/mL
O=C1CSC(c2cccc(Cl)c2Cl)N1NC1=Nc2ccccc2Sc2ccccc21,,,,H37Rv,MIC,broth dilution,500 µg/mL
Cc1c(C(=O)c2ccccc2)[n+](=O)c2cc(Cl)ccc2n1[O-],VERO,6.25 µg/mL,,H37Rv,inhibition,BACTEC,100%
NC(=O)c1cnccn1,,,,Isolate 97-58,MIC,,900 µg/mL
CCC[C@@H]1C[C@@H](C(=O)N[C@@H]([C@H]2O[C@H](SC)[C@H](O)[C@@H](O)[C@H]2O)[C@H](C)Cl)N(C)C1,,,,H37Rv,MIC,,>64 µg/mL
Cc1c(N2CC3CCCNC3C2)c(F)cc2c(=O)c(C(=O)O)cn(C3CC3)c12,,,,51 (RFP-resistant),MIC,,1.56 µg/mL
CC[n+]1c(-c2ccccc2)c2cc(N)ccc2c2ccc(N)cc21,,,,rif,MIC,PCR,>128 µg/mL
O=C(Nc1ccncc1)c1cccc2nc3ccccc3nc12,,,,H37Rv 27294,MIC,,1.56 µg/mL
CCOc1ccc(C(=O)N/N=C/c2ccc3c(c2)OCO3)cc1,,,,,MIC,,200 µg/mL
Cc1ccc2nc(SCC(=O)N/N=C/C(=O)c3ccc([N+](=O)[O-])o3)n(-c3ccccc3)c(=O)c2c1,,,,H37Rv,MIC,,>6.25 µg/mL
Br.O=C(O)CNCCN1CC(=O)N(c2ccccc2)C1=S,,12.5 µg/mL,,H37Rv,inhibition,BACTEC,0%
Nc1ccc(C(=O)N/N=C/c2ccccc2)c(O)c1,,,,,MIC,,10 µg/mL
FC(F)(F)C(F)(F)C(F)(F)c1nc2c(Cl)cc(Cl)cc2[nH]1,,,,My 331/88,MIC,,8 µM
COc1ccc(N2C(=O)C3c4[nH]c5ccc(C)cc5c4C4CCC(C(C)(C)C)CC4C3C2=O)cc1,,12.5 µg/mL,,H37Rv,inhibition,BACTEC,0%
Cc1csc(C(C)(O)c2nnc(Nc3ncn(Cc4c(F)cccc4F)n3)s2)n1,,,,M103I,MIC,,>25 µM
NNC(=O)c1ccccc1N,,,,,MIC,,200 µg/mL
CC(=O)c1c(C)n([O-])c2ccccc2[n+]1=O,VERO,6.25 µg/mL,,H37Rv,inhibition,BACTEC,96%
C[C@@H]1CN(c2ccccc2)C[C@H](C)OS(=O)O1,,12.5 µg/mL,,H37Rv,inhibition,BACTEC,10%
CN(C)c1ccc(C2SCC(=O)N2NC2=Nc3ccccc3Sc3ccccc32)cc1,,,,H37Rv,MIC,broth dilution,1000 µg/mL
CC1CCCCN1c1cncc(C(=O)NO)n1,,,,Capreomycin-resistant,MIC,,62.5 µg/mL
CCOc1ccc(C(=O)Nc2ccc(C3=NCCN3)cc2)cc1C(=O)Nc1ccc(C2=NCCN2)cc1,,,,H37Rv,MIC bound,resazurin,>6.25 µg/mL
FC(F)(F)C(F)(F)c1nc2cc(Cl)c(Cl)cc2[nH]1,,,,My 331/88,MIC,,4 µM
O=C1[C@H](Cl)[C@H](c2ccccc2[N+](=O)[O-])N1NC1=Nc2ccccc2Sc2ccccc21,,,,H37Rv,MIC,broth dilution,1000 µg/mL
Cc1cccc(Sc2nc(Cl)nc3nc[nH]c23)c1,,,,H37Ra,MIC,,>12.8 µg/mL
FC(F)(F)C(F)(F)c1nc2c(Br)c(Br)c(Br)c(Br)c2[nH]1,,,,My 331/88,MIC,,8 µM
O=[n+]1c2ccccc2n([O-])c2cc(Cl)ccc21,,12.5 µg/mL,,H37Rv,inhibition,BACTEC,100%
Clc1ccccc1Sc1ncnc2nc[nH]c12,,6.25 µg/mL,,H37Rv,inhibition,,0%
NC(=S)c1cncc(-n2ccnc2)n1,,,,SP 607,MIC,,250 µg/mL
O=C(NCCNC(=O)c1ccncc1)c1ccccc1,,6.25 µg/mL,,H37Rv,inhibition,resazurin,0%
O=C(O)COc1ccc(C2C(Oc3ccc(Cl)cc3)C(=O)N2c2ccc(Cl)c(F)c2)cc1,,,,H37Rv,MIC90,resazurin,1.56 µg/mL
CCCC\C=C(O)/C=C\C=C\CCCCCCCC(=O)NN,,,,,MIC,,>200 µg/mL
CC(=O)c1c(CN2CCN(c3ccc([N+](=O)[O-])cc3)CC2)n([O-])c2cc(C)c(C)cc2[n+]1=O,,6.25 µg/mL,,H37Rv,inhibition,BACTEC,0%
O=[N+]([O-])c1cc(Sc2nc3c(Cl)cc(Cl)cc3[nH]2)cc([N+](=O)[O-])c1,,,,My 331/88,MIC,,4 µM
COc1ccccc1NC(=O)c1cccc2nc3ccccc3nc12,,,,H37Rv 27294,MIC,,0.78 µg/mL
O=[N+]([O-])c1ccc(Sc2nc3c(Cl)cc(Cl)cc3[nH]2)cc1,,,,My 331/88,MIC,,4 µM
O=C1CSC(c2cccc([N+](=O)[O-])c2)N1NC1=Nc2ccccc2Sc2ccccc21,,,,H37Rv,MIC,broth dilution,250 µg/mL
Cc1ccc(CSc2nc(=O)[nH]c3nc[nH]c23)cc1,,,,H37Ra,MIC,,>12.8 µg/mL
Cc1cc(-c2cc3c(cc2F)c(=O)c(C(=O)O)cn3C2CC2)cc(C)n1,,,,131-4,MIC,,0.5 µg/mL
Cc1cccc(OC2C(=O)N(c3ccc(Cl)c(F)c3)C2c2ccc(OCC(=O)O)cc2)c1,,,,H37Rv,MIC90,resazurin,>6.25 µg/mL
O=C1CSC(c2ccccc2Cl)N1NC1=Nc2ccccc2Sc2ccccc21,,,,H37Rv,MIC,broth dilution,250 µg/mL
CNC(=O)c1nn(C)c(=O)[nH]c1=O,,12.5 µg/mL,,H37Rv,inhibition,BACTEC,18%
COc1ccc(NC(=O)c2cccc3nc4ccccc4nc23)cc1OC,,,,H37Rv 27294,MIC,,0.39 µg/mL
O=C(O)C1C2OC3C(OOC31)C2Br,,12.5 µg/mL,,H37Rv,inhibition,BACTEC,-11%
O=C(O)COc1ccc(C2C(Oc3ccc([N+](=O)[O-])cc3)C(=O)N2c2ccc(Cl)c(F)c2)cc1,,6.25 µg/mL,,H37Rv,inhibition,resazurin,89%
Cc1ccc(CSc2ncnc3nc[nH]c23)cc1,,,,H37Ra,MIC,,>12.8 µg/mL
Cc1cccc(C)c1NC(=O)c1cccc2nc3ccccc3nc12,,,,H37Rv 27294,MIC,,3.12 µg/mL
COC(c1ccc(C(C)(C)C)cc1)(c1ccc(C(C)(C)C)cc1)c1cc(C(O)(c2cc(C(OC)(c3ccc(C(C)(C)C)cc3)c3ccc(C(C)(C)C)cc3)c(C)cc2C)c2cc(C(OC)(c3ccc(C(C)(C)C)cc3)c3ccc(C(C)(C)C)cc3)c(C)cc2C)c(C)cc1C,,6.25 µg/mL,,H37Rv,inhibition,resazurin,1%
Cc1ccc2nc(SCC(=O)N/N=C/c3ccc(Cl)c(Cl)c3)n(-c3ccccc3)c(=O)c2c1,,,,H37Rv,MIC,,>6.25 µg/mL
COc1ccc2c(c1)[n+](=O)c(C(C)=O)c(C)n2[O-],,,inside macrophages,H37Rv,EC50,,<6.7 µg/mL
O=C1C(=O)c2c(nc3ccccn23)-c2ccccc21,,,,H37Rv,MIC,resazurin,0.39 µg/mL
NC(=O)c1cncc(-n2ccnc2)n1,,,,Capreomycin-resistant,MIC,,1000 µg/mL
Cc1ccc(OC2C(=O)N(c3ccc(Cl)c(F)c3)C2c2ccc(OCC(=O)O)cc2)cc1,,6.25 µg/mL,,H37Rv,inhibition,resazurin,85%
FC(F)(F)C(F)(F)c1nc2c(Cl)cc(Cl)cc2[nH]1,,,,My 331/88,MIC,,32 µM
O=C1CSC(c2ccc(F)cc2)N1NC1=Nc2ccccc2Sc2ccccc21,,,,H37Rv,MIC,broth dilution,250 µg/mL
COC(=O)C(=O)c1c(C(=O)OC)nc2nnc(N)n2c1-c1ccc(O)c(OC)c1,,,,H37Rv,MIC bound,resazurin,>6.25 µg/mL
COc1ccc2c(=O)c3c(O)cccc3oc2c1O,,,,90-221387,MIC,,24.8 µg/mL
NNC(=O)/C=C/c1ccncc1,,,,H37Rv,MIC bound,BACTEC,>12.5 µg/mL
O=C(N/N=C/c1c(Cl)cccc1Cl)c1ccccc1Cl,,,,,MIC,,>40 µg/mL
C[N+](C)(C)CC(=O)N/N=C/c1ccc([N+](=O)[O-])o1,,12.5 µg/mL,,H37Rv,inhibition,BACTEC,97%
CC1CN(c2cncc(C#N)n2)CC(C)O1,,,,H37Rv,MIC,,500 µg/mL
NC(Cc1c[nH]c2ccccc12)C(=O)NC(Cc1c[nH]c2ccccc12)C(=O)NC(Cc1c[nH]c2ccccc12)C(=O)O,,12.5 µg/mL,,H37Rv,inhibition,BACTEC,99%
C/C(=N\NC(=O)c1ccccc1)c1ccccc1,,,,,MIC,,10 µg/mL
Cc1cccc(NCC(=O)NN)c1,,,,H37Rv,MIC bound,BACTEC,>12.5 µg/mL
CC(=O)c1c(COc2ccc(Cl)cc2)n([O-])c2ccccc2[n+]1=O,VERO,,,H37Rv,EC50,BACTEC,<6.25 µg/mL
Cc1c(N2C[C@@H](N)C3(CC3)C2)c(F)cc2c(=O)c(C(=O)O)cn([C@@H]3C[C@@H]3F)c12,,,,50 (RFP-resistant),MIC,,0.1 µg/mL
NNC(=O)COc1cc(Cl)c(Cl)cc1Cl,,,,,MIC,,>200 µg/mL
Cc1c(N2C[C@@H]3CCCN[C@@H]3C2)c(F)cn2c(=O)c(C(=O)O)cc(C3CC3)c12,,,,ATCC 35837,MIC,,0.031 µg/mL
Cc1cc(O)c(C(c2ccc(N(C)C)cc2Cl)c2c(O)cc(C)[nH]c2=O)c(=O)[nH]1,,,,H37Rv,MIC bound,BACTEC,>12.5 µg/mL
CCn1cc(C(=O)O)c(=O)c2cc(F)c(N3CCNCC3)cc21,,,,H37Rv,MIC,,5 µg/mL
CN(C)C(=S)SCN1C(=O)c2ccccc2C1=O,,,,PZA-R,MIC,,0.8 µg/mL
CO[C@H]1/C=C/O[C@@]2(C)Oc3c(C)c(O)c4c(O)c(c(/C=N/N5CCN(C)CC5)c(O)c4c3C2=O)NC(=O)/C(C)=C\C=C\[C@H](C)[C@H](O)[C@@H](C)[C@@H](O)[C@@H](C)[C@H](OC(C)=O)[C@@H]1C,,,,,MIC,,0.007 µg/mL
S=c1[nH]nc(-c2ccccc2)o1,,,,,MIC,,200 µg/mL
CCC1CN(c2c(F)cc3c(=O)c(C(=O)O)cn(C4CC4)c3c2OC)CCN1,,,,47 (RFP-resistant),MIC,,1 µg/mL

Repeating the first 8 entries:

SMILES	cells	dose	conditions	strain or isolate	measure	read by	value
N#CC(C#N)=c1c2nsnc2c(=C(C#N)C#N)c2nsnc12				H37Rv	MIC bound	BACTEC	≤12.5 µg/mL
COc1cc(-c2ccccc2)cc(OC)c1O				90-221387	MIC		52.3 µg/mL
CCCCCCSc1nc(Cl)nc2nc[nH]c12				H37Rv	MIC90		>6.25 µg/mL
COc1cc(-c2ccc(O)cc2)cc(O)c1C/C=C(\C)CO				90-221387	MIC		25.4 µg/mL
O=C(O)C1(O)C[C@@H](O)C(O)[C@H](O)C1		12.5 µg/mL		H37Rv	inhibition	BACTEC	8%
CC(=O)c1c(C)n([O-])c2ccc(Cl)cc2[n+]1=O	VERO			H37Rv	EC50	BACTEC	<6.25 µg/mL
COC(=O)C1c2ccccc2CC(=O)N1NC(C)=O				H37Rv	MIC bound	BACTEC	>12.5 µg/mL
Clc1nc(Sc2ccc3ccccc3n2)c2[nH]cnc2n1.O		6.25 µg/mL		H37Rv	inhibition		4%